Patent US20240122867A1, “CORONAL PROTEIN-COATED NANOPARTICLES AND USES THEREOF” (UNIVERSITY OF CENTRAL FLORIDA RESEARCH FOUNDATION, INC., priority 2021, published 2024)

Protein sequences, listed by entry. Tags and fused reporters are not part of them. Lines headed by an entry give the natural chain unless they say otherwise; changes in a name come on top.
UniProt Q9EQ21: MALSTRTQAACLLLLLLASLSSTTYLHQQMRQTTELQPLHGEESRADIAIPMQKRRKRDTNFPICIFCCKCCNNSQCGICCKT

What follows are substances tested on coronal proteins on NPs. Conditions: HBPE-NPs incubated 1 h with IAV day 5 (V5) mouse sera, 20:1 NP:sera, centrifuged and washed.
Set-up: species or system mouse

Substance | V5 Sera_Nanoparticles Quantitative Value (Normalized Total Spectra)
Alpha-2-antiplasmin | 5.4396
Ankyrin-1 | 25.022
Ankyrin-2 | 1.0879
Ankyrin-3 | 1.0879
Apolipoprotein A-II | 6.5275
Apolipoprotein B-100 | 21.758
Beta-2-microglobulin | 5.4396
Beta-actin-like protein 2 | 9.7913
Carbonic anhydrase 2 | 3.2638
Cluster of Ankyrin-1 | 25.022
Cluster of Filamin-A | 4.3517
Cluster of Heat shock cognate 71 kDa protein | 8.7034
Cluster of Myosin-9 | 1.0879
Coagulation factor V | 6.5275
Complement C4-B | 18.495
Desmoplakin | 0
Disks large homolog 5 | 1.0879
Endoplasmic reticulum chaperone BiP | 2.1758
Epidermal growth factor receptor | 4.3517
Fibronectin | 35.901
Filamin-A | 4.3517
Filamin-B | 0
Filamin-C | 0
Heat shock cognate 71 kDa protein | 7.6154
Hemoglobin subunit alpha | 41.341
Hemoglobin subunit beta-2 | 54.396

Substance | V5 Sera_Nanoparticles Quantitative Value (Normalized Total Spectra)
Heparin cofactor 2 | 2.1758
Hepcidin (DTNFPICIFCCKCCNNSQCGICCKT; Hepcidin; UniProt Q9EQ21 59-83, looked up) | 1.0879
Immunoglobulin kappa constant | 7.6154
Myosin-9 | 1.0879
Myosin-11 | 1.0879
Peptidyl-prolyl cis-trans isomerase A | 1.0879
Pericentrin | 0
Plasma kallikrein | 15.231
Protein PRRC2B | 1.0879
Retinol-binding protein 4 | 2.1758
Serotransferrin | 96.825
Spectrin alpha chain, erythrocytic 1 | 22.846
Spectrin alpha chain, non-erythrocytic 1 | 1.0879
Spectrin beta chain, erythrocytic | 31.55
Superoxide dismutase [Superoxide dismutase [Cu—Zn]] | 1.0879
T-lymphoma invasion and metastasis-inducing protein 1 | 1.0879
Talin-1 | 6.5275
Testisin | 1.0879
Thrombospondin-1 | 44.605
Transitional endoplasmic reticulum ATPase | 3.2638
Transthyretin | 3.2638
Tubulin alpha-1B chain | 1.0879
Tubulin alpha-4A chain | 2.1758
Vitamin K-dependent protein S | 2.1758
von Willebrand factor | 1.0879

Same assay, conditions: HBPE-NPs incubated with IAV day 5 (V5) mouse sera 1 h, 20:1 NP:sera, centrifuged and washed

Substance | V5 Sera_Nanoparticles Quantitative Value (Normalized Total Spectra)
Cathelicidin antimicrobial peptide (ISRLAGLLRKGGEKIGEKLKKIGQKIKNFFQKLVPQPE; UniProt P51437 135-172, looked up) | 0
Cilia- and flagella-associated protein 221 | 0
Cluster of Tubulin beta-4B chain | 0
E3 ubiquitin-protein ligase MIB1 | 0
Pyruvate kinase PKM | 0
SPARC-like protein 1 | 0
Transmembrane protein KIAA1109 | 0
Tubulin beta-2A chain | 0
Tubulin beta-4B chain | 0

Same assay, conditions: IAV day 5 (V5) mouse sera alone, no NPs (sera-only control)

Substance | V5 Sera Alone (Control) Quantitative Value (Normalized Total Spectra)
Alpha-2-antiplasmin | 1.8505
Ankyrin-1 | 2.7757
Ankyrin-2 | 0
Ankyrin-3 | 0
Apolipoprotein A-II | 14.804
Apolipoprotein B-100 | 19.43
Beta-2-microglobulin | 5.5514
Beta-actin-like protein 2 | 4.6261
Carbonic anhydrase 2 | 2.7757
Cluster of Ankyrin-1 | 2.7757
Cluster of Filamin-A | 15.729
Cluster of Heat shock cognate 71 kDa protein | 2.7757
Cluster of Myosin-9 | 4.6261
Coagulation factor V | 4.6261
Complement C4-B | 36.084
Desmoplakin | 0.9252
Disks large homolog 5 | 0
Endoplasmic reticulum chaperone BiP | 0.9252
Epidermal growth factor receptor | 6.4766
Fibronectin | 33.308
Filamin-A | 15.729
Filamin-B | 1.8505
Filamin-C | 2.7757
Heat shock cognate 71 kDa protein | 2.7757
Hemoglobin subunit alpha | 28.682
Hemoglobin subunit beta-2 | 24.981

Substance | V5 Sera Alone (Control) Quantitative Value (Normalized Total Spectra)
Heparin cofactor 2 | 1.8505
Hepcidin (DTNFPICIFCCKCCNNSQCGICCKT; Hepcidin; UniProt Q9EQ21 59-83, looked up) | 0.9252
Immunoglobulin kappa constant | 11.103
Myosin-9 | 4.6261
Myosin-11 | 1.8505
Peptidyl-prolyl cis-trans isomerase A | 0
Pericentrin | 0.9252
Plasma kallikrein | 14.804
Protein PRRC2B | 0.9252
Retinol-binding protein 4 | 2.7757
Serotransferrin | 136.93
Spectrin alpha chain, erythrocytic 1 | 2.7757
Spectrin alpha chain, non-erythrocytic 1 | 0.9252
Spectrin beta chain, erythrocytic | 3.7009
Superoxide dismutase [Superoxide dismutase [Cu—Zn]] | 0.9252
T-lymphoma invasion and metastasis-inducing protein 1 | 0
Talin-1 | 9.2523
Testisin | 0
Thrombospondin-1 | 24.981
Transitional endoplasmic reticulum ATPase | 0.9252
Transthyretin | 7.4018
Tubulin alpha-1B chain | 4.6261
Tubulin alpha-4A chain | 3.7009
Vitamin K-dependent protein S | 0
von Willebrand factor | 0.9252

Same assay, conditions: IAV day 5 (V5) mouse sera alone, no NPs; mass spectrometry protein identification

Substance | V5 Sera Alone (Control) Quantitative Value (Normalized Total Spectra)
Cathelicidin antimicrobial peptide (ISRLAGLLRKGGEKIGEKLKKIGQKIKNFFQKLVPQPE; UniProt P51437 135-172, looked up) | 3.7009
Cilia- and flagella-associated protein 221 | 0.9252
Cluster of Tubulin beta-4B chain | 2.7757
E3 ubiquitin-protein ligase MIB1 | 0.9252
Pyruvate kinase PKM | 2.7757
SPARC-like protein 1 | 0.9252
Transmembrane protein KIAA1109 | 0.9252
Tubulin beta-2A chain | 1.8505
Tubulin beta-4B chain | 2.7757
